Measurements taken from PMC5034337 (Scientific Reports, 2016).

Assay: Eight-day duplicate diet case study, 24 h urine of one volunteer (LC-MS/MS)

CC1=CC2OC3C(OS(=O)(=O)O)CC(C)(C34CO4)C2(CO)C(O)C1=O (centres unmarked)
D3S excretion rate (Average of days 3-6): 3.5% | D3S excretion rate (Day 3, excreted DON-3-sulfate in μmol / DON intake in μmol * 100): 4.3% | D3S excretion rate (Day 4, excreted DON-3-sulfate in μmol / DON intake in μmol * 100): 2.1% | D3S excretion rate (Day 5, excreted DON-3-sulfate in μmol / DON intake in μmol * 100): 3.5% | D3S excretion rate (Day 6, excreted DON-3-sulfate in μmol / DON intake in μmol * 100): 4.3%
